Assay results as given in patent EP4314010B1, “MODIFIED PEPTIDOMIMETICS AND METHODS OF USE” (dated 2026).

Tested on: SARS-CoV-2 S1 pseudovirus
Assay: SARS-CoV-2 S1 pseudovirus infection of ACE2-expressing HEK293T cells (DsRed)
Details: ACE2-overexpressing HEK293T cells
Method: During infection, increased SOCE and Orai1 activity leads to greater phosphorylation of Ca^2+-sensitive kinases (e.g., calcineurin) and activation of transcription factors (e.g., NFAT) leading to a pro-inflammatory response. […] The results were normalized to the baseline. Thapsigargin (Tg) at 1 µM was used as control. The inhibition of Ca^2+ release after scaffold peptide (ELD100; reference) addition is shown for comparison. […] The results were normalized to the baseline. Thapsigargin (Tg) at 1 µM was used as control. The inhibition of Ca^2+ release after ELD100 (reference) addition is shown for comparison. […] The results were normalized to the baseline. Thapsigargin (Tg) at 1 µM was used as control. The inhibition of Ca^2+ release after ELD100 (reference) addition is shown for comparison. […] The results were normalized to the baseline. Thapsigargin (Tg) at 1 µM was used as control. The inhibition of Ca^2+ release after ELD100 (reference) addition is shown for comparison. […] 1 h later, thapsigargin was added and the change in Fluo-4 fluorescence was measured. […] HEK293T cells were transfected with anti-Orai1 shRNA for 48 h and the change in Fluo4 fluorescence was measured. […] FIG. 16G panels B and C show plots showing fluorescence intensities of Orai1 in macrophages and neutrophils, respectively. *** p<0.001 different as indicated. […]

With a-HDIVNMLIH-a the “pseudovirus infection (DsRed fluorescence)” value was “inhibited viral replication”.

n-VHDIVNMLIHG-n was tested, and the “pseudovirus infection (DsRed fluorescence)” value was “inhibited viral replication”.
